Measured values from several laboratories, pooled; numbers as filed in NIAID ChemDB.

Common to all: whole-cell or culture tests; agent: Cytomegalovirus; cells: HEL; measure: EC50

Conditions beyond the fields shown may differ between rows. An empty or dashed field is not shown. ECn: concentration that inhibits the pathogen or its effect by n%.

structure	strain or isolate	read by	value
O=c1[nH]c(=O)n([C@H]2C[C@H](O)[C@@H](CO)O2)cc1C1CCCC1	DAVIS/AD169	plaque count	>1200 µM
Nc1nc2c(ncn2C[C@H]2CC[C@@H](CO)C2)c(=O)[nH]1	DAVIS	cytopathic effect	>200 µg/mL
O=c1[nH]c(=O)n([C@H]2C[C@H](O)[C@@H](CO)S2)cc1C1CCCC1	DAVIS/AD169	plaque count	>1200 µM
C[C@@H]1CC[C@H]2[C@@H](C)C(=O)O[C@@H]3OC4(C)CC[C@@H]1[C@]32OO4	DAVIS	plaque count	>50 µg/mL
O=C(O)P(=O)(O)O	DAVIS	plaque count	10 µg/mL
Nc1nc(N)c2ncn(C[C@H]3CC[C@@H](CO)C3)c2n1	AD169	cytopathic effect	>50 µg/mL
Nc1nc(N)c2ncn(CC(CO)OCP(=O)(O)O)c2n1	DAVIS	cytopathic effect	20 µg/mL
C[C@H]1C[C@@H](n2cnc3c(N)ncnc32)[C@H](O)[C@@H]1O	AD169	cytopathic effect	>20 µg/mL
Cc1cn(C[C@@H](CO)OCP(=O)(O)O)c(=O)[nH]c1=O	AD169	plaque count	70 µg/mL
O=c1ccn([C@H]2C[C@H](O)[C@@H](CO)S2)c(=O)[nH]1	DAVIS/AD169	plaque count	>2000 µM
O=c1[nH]cnc2c1ncn2C[C@@H](CO)OCP(=O)(O)O	DAVIS	cytopathic effect	>400 µg/mL
CCCc1cn([C@H]2C[C@H](O)[C@@H](CO)S2)c(=O)[nH]c1=O	DAVIS/AD169	plaque count	>1500 µM
O=c1[nH]cnc2c1ncn2CCOCP(=O)(O)O	AD169	cytopathic effect	>400 µg/mL
O=c1[nH]c(=O)n([C@H]2C[C@H](O)[C@@H](CO)S2)cc1C1CC1	DAVIS/AD169	plaque count	>1500 µM
Nc1nc(N)c2ncn(CCOCP(=O)(O)O)c2n1	AD169	plaque count	10 µg/mL
O=c1[nH]c(=O)n([C@H]2C[C@H](O)[C@@H](CO)O2)cc1C1CCCCC1	DAVIS/AD169	plaque count	>1200 µM
Nc1nc(OCCOCP(=O)(O)O)cc(=O)[nH]1		cytopathic effect	>50 µg/mL
Nc1nc(Cl)c2ncn(C[C@H]3CC[C@@H](CO)C3)c2n1	DAVIS	cytopathic effect	>5 µg/mL